{
  "source": "paper PMC8117225",
  "about": "“Structural Insights of Shigella Translocator IpaB and Its Chaperone IpgC in Solution” (2021)",
  "target": "N-terminal His-tagged IpgC (Shigella flexneri 5a (M90T)) (UniProt P0A2U4)",
  "assay": "SAXS",
  "data": [
    {"substance": "IpaB full-length (natural protein)", "values": [
      {"measurement": "stoichiometry N (IpaB per IpgC)", "value": 1}
    ]}
  ]
}
